Results of unrelated studies side by side (data: NIAID ChemDB).

Shared fields: growth or infection tests; species: HIV-1; cell line: MT-2; endpoint: EC50

ECn is the concentration giving n% inhibition of infection, replication or growth. Rows are shuffled and stem from different studies. An empty or dashed field is not shown.

CC(=O)OCC1OC(SC2C(OC(C)=O)OC(COC(C)=O)C(OC(C)=O)C2OC(C)=O)C(OC(C)=O)C(OC(C)=O)C1OC(C)=O ; method: XTT ; result: 8 µg/mL
CC(C)[C@@H]1NC(=O)CCOCCCOc2ccc(cc2)C[C@@H]([C@H](O)CN2C[C@H]3CCCC[C@H]3C[C@H]2C(=O)NC(C)(C)C)NC1=O ; strain: RF ; method: p24 ; result: 0.004 µM
Nc1ncnc2c1ncn2C1CC(CO)(CO)C1 ; strain: IIIB ; method: cytopathic effect ; result: >200 µM
C=C(C)[C@@H]1CC[C@]2(C(=O)OC)CC[C@]3(C)[C@H](CC[C@@H]4[C@@]5(C)CC=C(c6ccc(C(=O)O)cc6)C(C)(C)[C@@H]5CC[C@]43C)[C@@H]12 ; strain: NL4-3 ; mutations: Gag P373S ; method: luciferase ; result: 1 µM
Nc1ncn([C@H]2CO[C@@H](CO)O2)c(=O)n1 ; strain: IIIB ; method: cytopathic effect / MTT ; result: 1 µM
CN(C(=O)[C@H](Cc1cc(F)cc(F)c1)NC(=O)NS(=O)(=O)n1ccc2ccccc21)c1ccc2scnc2c1 ; strain: NL4-3 ; method: luciferase ; result: 0.05 µM
CC(C)CN(C[C@@H](O)[C@H](Cc1ccccc1)NC(=O)O[C@H]1CO[C@H]2OCC[C@H]21)S(=O)(=O)c1ccc(C(=O)O)cc1 ; strain: LAI ; method: p24 / luminescence ; result: 1 µM
CN(C(=O)[C@H](Cc1cc(F)cc(F)c1)NC(=O)NS(=O)(=O)N(C)c1ccccc1)c1ccc2scnc2c1 ; strain: NL4-3 ; method: luciferase ; result: 0.06 µM
COc1cc(N=Nc2cc(S(=O)(=O)O)cc3cc(S(=O)(=O)O)cc(O)c23)c(C)cc1Nc1nc(Nc2ncncc2OC)nc(Nc2ncncc2OC)n1 ; strain: IIIB ; method: p24 ; result: >80 µM
O=C(C(=O)N1CCN(C(=O)c2ccc(O)cc2)CC1)c1c[nH]c2ccccc12 ; strain: BRU ; method: RT activity ; result: <10 µM
N#Cc1ccc(Nc2nnc(Nc3c(Cl)cccc3Cl)o2)cc1 ; strain: IIIB ; method: MTT ; result: 9.8 µM
C=C1CN(S(=O)(=O)c2ccc(C)cc2)CCCN(Cc2ccccc2)CCCN(S(=O)(=O)c2ccc(C)cc2)C1 ; strain: A17 ; mutations: Pyridinone-resistant (RT K103N Y181C) ; result: 2 µM
Cc1nc2cc3nn2c(c1[C@H](OC(C)(C)C)C(=O)O)-c1ccc2c(c1Cl)N(C/C=C/CCCc1cccc(c1)-c1cccc-3c1)CCO2 ; strain: NL4-3 ; setting: 10% FBS ; result: 0.722 µM
CCCCCCCCCCCCCCCCCCOCCOP(=O)(O)CO[C@H](CO)Cn1cnc2c(N)nc(N)nc21 ; strain: LAI ; method: p24 / ELISA ; result: 0.001 µM
CC1=C(C(=O)Nc2ccc(Cl)c(C(=O)OC(C)C)c2)SCCO1 ; strain: IIIB ; method: p24 / RT activity ; result: 0.24 µM
CC(C)C1=C2[C@H]3CC[C@@H]4[C@@]5(C)CC[C@H](OC(=O)[C@H]6C[C@@H](C(=O)O)C6(C)C)C(C)(C)[C@@H]5CC[C@@]4(C)[C@]3(C)CC[C@@]2(CC(=O)NC(C)(C)c2ncc(Cl)cn2)CC1=O ; strain: 92HT599 ; method: p24 / ELISA ; result: <1 µM
C/C=C(\C)C(=O)O[C@@H]1[C@@H](C)[C@]2(O)[C@@H]3C=C(C)C(=O)[C@H]3CC(C=O)=C[C@H]2[C@@H]2C(C)(C)[C@]12OCC(C)C ; strain: NL4-3 ; method: luciferase ; result: 2.56 µM
Cc1ccc2[nH]cc(C(=O)C(=O)N3CCN(C(=O)c4ccccc4)CC3)c2c1 ; strain: BRU ; method: RT activity ; result: ~10 µM
CC(C)CN(C[C@@H](O)[C@H](Cc1ccccc1)NC(=O)O[C@H]1CO[C@H]2OCC[C@H]21)S(=O)(=O)c1ccc2c(c1)OCO2 ; strain: LAI ; method: MTT ; result: 0.0005 µM
Nc1nc(NC2CC2)c2ncn([C@H]3CO[C@@H](CO)O3)c2n1 ; strain: IIIB BCH-13520-resistant (RT K65R) ; mutations: RT-K65R ; method: RT activity ; result: 0.57 µM
COc1ccc(S(=O)(=O)N(CC(C)C)C[C@@H](O)[C@@H]2Cc3ccc(cc3)OCCCCCCCc3c(O)cccc3C(=O)N2)cc1 ; strain: LAI ; method: MTT ; result: 0.8 µM
O=C(C(=O)N1CCN(C(=O)c2cccc(Cl)c2F)CC1)c1c[nH]c2ccccc12 ; strain: BRU ; method: RT activity ; result: <10 µM
CN(C(=O)[C@H](Cc1cc(F)cc(F)c1)NC(=O)NS(=O)(=O)N1CCc2cncnc21)c1ccc2scnc2c1 ; strain: NL4-3 ; method: luciferase ; result: 0.94 µM
CC1(C)C(c2ccc(C(=O)O)cc2)=CC[C@]2(C)CN(C(=O)C3(c4ccccc4N)CCCC3)CC=C12 ; strain: NL4-3 ; mutations: Renilla luciferase reporter Gag P373S ; method: luciferase / luminescence ; result: >3 µM
COCCOc1cc(Cl)ccc1C(=O)NC(C)(C)CNC(=O)C[C@@]12CC[C@]3(C)[C@H](CC[C@@H]4[C@@]5(C)CC[C@H](OC(=O)[C@H]6C[C@@H](C(=O)O)C6(C)C)C(C)(C)[C@@H]5CC[C@]43C)C1=C(C(C)C)C(=O)C2 ; strain: 92HT599 ; method: p24 / ELISA ; result: <1 µM
C=C(C)[C@@H]1CC[C@]2(CO)CC[C@]3(C)[C@H](CC[C@@H]4[C@@]5(C)CC=C(c6cc(C(=O)O)[nH]n6)C(C)(C)[C@@H]5CC[C@]43C)[C@@H]12 ; strain: NL4-3 ; mutations: Gag P373S ; method: luciferase ; result: 1 µM
Nc1ncnc2c1ncn2C1CCC1 ; strain: IIIB ; method: cytopathic effect ; result: >200 µM
CC(=O)c1ncc(-c2ccc(S(=O)(=O)N(CC(C)C)C[C@@H](O)[C@H](Cc3ccccc3)NC(=O)O[C@H]3CO[C@H]4OCC[C@H]43)cc2)o1 ; strain: LAI ; method: MTT / absorbance ; result: 0.0028 µM
COc1ccc(S(=O)(=O)O)cc1N=Nc1c(S(=O)(=O)O)cc2cc(Nc3nc(Nc4ccccc4)nc(Nc4cc(C)c(N=Nc5cc(S(=O)(=O)O)cc6cc(S(=O)(=O)O)cc(O)c56)cc4OC)n3)ccc2c1O ; strain: IIIB ; method: p24 ; result: 1.18 µM
O=C(C(=O)N1CCN(C(=O)c2ccccc2)CC1)c1c[nH]c2cccc(F)c12 ; strain: NL4-3 ; result: 0.0308 µM
CC(c1nnc(Nc2ccc(C#N)cc2)o1)c1c(F)cccc1F ; strain: IIIB ; method: MTT ; result: 0.2 µM
Cc1nn([C@H]2CO[C@@H](CO)O2)c(=O)[nH]c1=O ; strain: IIIB ; method: cytopathic effect / MTT ; result: >100 µM
C=C(C)[C@@H]1CC[C@]2(CO)CC[C@]3(C)[C@H](CC[C@@H]4[C@@]5(C)CC=C(c6ccc(S(N)(=O)=O)cc6)C(C)(C)[C@@H]5CC[C@]43C)[C@@H]12 ; strain: NL4-3 ; mutations: Gag P373S ; method: luciferase ; result: 1 µM
CC(C)=CCN1Cc2c(OCCOCCOCCOCCOCCOCCn3c(=O)ccn([C@H]4C=C[C@@H](COP(=O)(O)OP(=O)(O)OP(=O)(O)O)O4)c3=O)ccc3[nH]c(=S)n(c23)C[C@@H]1C ; method: MTT / absorbance ; result: 20 µM
Nc1nc(N)c2ncn([C@H]3CO[C@@H](CO)O3)c2n1 ; mutations: RT-K65R ; method: cytopathic effect / XTT ; result: 42 µM
CC1(C)C(c2ccc(C(=O)O)cc2)=CC[C@]2(C)CN(C(=O)c3ccccc3-c3nc4ccc(F)c(F)c4o3)CC=C12 ; strain: NL4-3 ; mutations: Renilla luciferase reporter Gag P373S ; method: luciferase / luminescence ; result: >3 µM
NCC(=O)N1CCC[C@H]1C(=O)NCC(N)=O ; strain: LAV ; method: p24 ; result: <20 µM
Nc1nc2c(ncn2[C@H]2CO[C@@H](CO)O2)c(=O)[nH]1 ; mutations: RT-A98S F116Y Q151M T215Y ; method: cytopathic effect / XTT ; result: 18 µM
Nc1ncnc2c1ncn2[C@@H]1O[C@H](OCP(=O)(O)O)C=C1F ; mutations: RT-M184V ; method: cytopathic effect ; result: 9.84 µM
CCCCCCCCCCCCCCCCCCOCCOP(=O)([O-])CO[C@H](COC)Cn1cnc2c(N)ncnc21 ; strain: LAI ; method: p24 / ELISA ; result: 0.03 µM
N#Cc1ccc(Nc2nnc(Cc3c(F)cccc3F)o2)cc1 ; strain: IIIB ; method: MTT ; result: 0.36 µM
CCc1c(Sc2ccccc2)n(COCCO)c(=O)[nH]c1=O ; strain: IIIB ; method: MTT / syncytia ; result: 0.027 µM
O=C(C(=O)N1CCN(C(=O)c2ccc(F)c(F)c2)CC1)c1c[nH]c2ccccc12 ; strain: BRU ; method: RT activity ; result: >10 µM
C=C1CC[C@@H](OC(C)=O)[C@@]2(C)CC[C@]3(O)O[C@@]12C[C@@]3(C)CCC(=O)C(C)C ; strain: IIIB ; method: MTT ; result: 3.67 µM
C=C(C)[C@@H]1CC[C@]2(CO)CC[C@]3(C)[C@H](CC[C@@H]4[C@@]5(C)CC=C(c6csc(C(=O)O)c6)C(C)(C)[C@@H]5CC[C@]43C)[C@@H]12 ; strain: NL4-3 ; mutations: Gag P373S ; method: luciferase ; result: 1 µM
CCCCCCCCCCCCCCCCCCOCCOP(=O)(O)CO[C@H](CO)Cn1cc(C)c(=O)[nH]c1=O ; strain: LAI ; method: p24 / ELISA ; result: >10 µM
Fc1ccc(Nc2ncc(Cc3c(Cl)cccc3Cl)o2)cc1 ; strain: IIIB ; method: MTT ; result: 0.43 µM
Cn1nc(NS(C)(=O)=O)c2c(Cl)ccc(-n3c([C@H](Cc4cc(F)cc(F)c4)NC(=O)Cn4nc(C5CC5)c5c4C(F)(F)[C@H]4C[C@@H]54)nc4nc(OCCC(C)(F)F)ccc4c3=O)c21 ; strain: NL4-3 ; method: luciferase ; result: 0.00005 µM
CCCc1cc(=O)oc2c3c(c4c(c12)OC(C)(C)CC4)O[C@H](C)[C@@H](C)C3=O ; strain: IIIB ; method: cytopathic effect / XTT ; result: 2.62 µM
CC(C)C1=C2[C@H]3CC[C@@H]4[C@@]5(C)CC[C@H](OC(=O)[C@H]6C[C@@H](C(=O)O)C6(C)C)C(C)(C)[C@@H]5CC[C@@]4(C)[C@]3(C)CC[C@@]2([C@@H](O)CNCC(C)(C)NC(=O)c2ccc(Cl)cc2OCCN(C)C)CC1=O ; strain: 92HT599 ; method: p24 / ELISA ; result: <1 µM
O=C(O[C@H]1Cc2c(O)cc(O)cc2O[C@@H]1c1cc(O)c(O)c(O)c1)c1cc(O)c(O)c(O)c1 ; strain: IIIB ; method: p24 ; result: 4.61 µM
Cc1[nH]c2ccccc2c1C(=O)C(=O)N1CCN(C(=O)c2ccccc2)CC1 ; strain: BRU ; method: RT activity ; result: <10 µM
N#CC1C=Cc2ccccc2N1C(=O)c1ccc(Cl)cc1 ; strain: IIIB ; method: syncytia ; result: <3 µM
Cn1nc(NS(C)(=O)=O)c2c(Cl)ccc(-n3c([C@H](Cc4cc(F)cc(F)c4)NC(=O)Cn4nc(C5CC5)c5c4C(F)(F)[C@H]4C[C@@H]54)nc4nc(OCCC(F)(F)F)ccc4c3=O)c21 ; strain: NL4-3 ; method: luciferase ; result: 0.000079 µM
CON(C)C(=O)c1ccc(S(=O)(=O)N(CC(C)C)C[C@@H](O)[C@H](Cc2ccccc2)NC(=O)O[C@H]2CO[C@H]3OCC[C@H]32)cc1 ; strain: LAI ; method: MTT / absorbance ; result: 0.132 µM
COc1ccc2c(C(=O)C(=O)N3CCN(C(=O)c4ccccc4)CC3)c[nH]c2c1 ; strain: BRU ; method: RT activity ; result: <10 µM
COc1ccc(OC)c(CCNC(=S)Nc2ccc(Br)cn2)c1 ; strain: IIIB ; method: MTT / absorbance ; result: 0.058 µM
CC(=O)Oc1c(OCC(=O)c2ccc(Br)cc2)ccc2c1C(=O)c1ccccc1C2=O ; method: cytopathic effect ; result: >100 µM
COP(=O)(c1cc(C)cc(CCC#N)c1)c1c(C(N)=O)[nH]c2ccc(Cl)cc12 ; strain: BH10 ; result: 0.0011 µM
O=C(N/C(C(=O)N1CCCCC1)=C(/Cl)c1ccccc1)c1ccccc1 ; strain: RF ; method: plaque count / virus yield ; result: >81 µM
Cc1nn([C@@H]2CO[C@H](CO)O2)c(=O)[nH]c1=O ; strain: IIIB ; method: cytopathic effect / MTT ; result: >100 µM
Nc1nc2c(ncn2C2[C@H](CO)[C@H]2CO)c(=O)[nH]1 ; result: >100 µg/mL
CN(c1nnc(Nc2ccc(C#N)cc2)o1)c1c(Cl)cccc1Cl ; strain: IIIB ; method: MTT ; result: 0.27 µM
Nc1ncn([C@@H]2CO[C@@H](CO)O2)c(=O)n1 ; strain: IIIB ; method: cytopathic effect / MTT ; result: >100 µM
O=C(O[C@@H]1Cc2c(O)cc(O)cc2O[C@@H]1c1cc(O)c(O)c(O)c1-c1c([C@H]2Oc3cc(O)cc(O)c3C[C@H]2OC(=O)c2cc(O)c(O)c(O)c2)cc(O)c(O)c1O)c1cc(O)c(O)c(O)c1 ; strain: IIIB ; method: p24 ; result: 1.51 µM

Repeating the final 3 entries:

smiles,strain,mutations,method,setting,result
CN(c1nnc(Nc2ccc(C#N)cc2)o1)c1c(Cl)cccc1Cl,IIIB,,MTT,,0.27 µM
Nc1ncn([C@@H]2CO[C@@H](CO)O2)c(=O)n1,IIIB,,cytopathic effect / MTT,,>100 µM
O=C(O[C@@H]1Cc2c(O)cc(O)cc2O[C@@H]1c1cc(O)c(O)c(O)c1-c1c([C@H]2Oc3cc(O)cc(O)c3C[C@H]2OC(=O)c2cc(O)c(O)c(O)c2)cc(O)c(O)c1O)c1cc(O)c(O)c(O)c1,IIIB,,p24,,1.51 µM